MIC data for two molecules are collected here from PMC9816411, “Host-derived chimeric peptides clear the causative bacteria and augment host innate immunity during infection: A case study of HLB in citrus and fire blight in apple” (Frontiers in Plant Science, 2022).

As a reminder, the MIC is the least concentration at which growth counts as inhibited.

This test has as its system E. coli strain BL21 (and, in some cases, ATCC25922). The note with it: 5 × 10^5 cfu, 24 h incubation (b9; method b42: 10^5 cells/ml, 16 h at 37°C, Mueller Hinton II broth), 96-well serial dilution 0.02–20 μM, OD/cfu, title says micromolars.

In turn, IERSRNLDWYKGPTLLDALKNLNEGKR [I27AB] gave an MIC above 20 µM.

In turn, `CC(C)C[C@@H]1NC(=O)[C@H](CCCNC(=N)N)NC(=O)[C@H](CCCNC(=N)N)NC(=O)[C@@H](NC(=O)[C@@H](N)CCCCN)CSSC[C@@H](C(=O)N[C@@H](CCCNC(=N)N)C(=O)NCC(=O)N[C@@H](CCCNC(=N)N)C(=O)N[C@@H](CCC(N)=O)C(=O)O)NC(=O)[C@H](Cc2ccc(O)cc2)NC(=O)[C@H]([C@@H](C)O)NC(=O)[C@H](C(C)C)NC(=O)[C@@H]2CSSC[C@H](NC1=O)C(=O)N[C@@H](Cc1ccc(O)cc1)C(=O)N[C@@H](CCCCN)C(=O)N[C@@H](CCC(N)=O)C(=O)N[C@@H](CCCNC(=N)N)C(=O)N2` [L19GA] showed an MIC of 1.25 to 2.5 µM.
